The record followed here is patent US20040185499A1, “Method of epitope scanning using fluorescence polarization” (priority 2003, published 2004).

Test [1] relates to antibodies to MPB70 in M. bovis positive bovine serum. In kind it is binding. As to conditions: pH 7.5.
In test [2] the test system is antibodies to MPB70 in M. bovis positive bovine serum (serum #3, #9, #15). In kind it is binding.

Where no end group is shown, it is not given here. The star is where a group is joined. 6FAM = O=C1OC2(c3ccc(O)cc3Oc3cc(O)ccc32)c2cc(C(=O)*)ccc21

As to “SVQGMSQDPVAVAAS (6FAM-SVQGMSQDPVAVAAS; listed as Mycobacterium bovis) [Peptide 7]”, in test [1], the “increase in fluorescence polarization with M. bovis positive bovine serum sample” value is reported as “did not result in a significant increase in fluorescence polarization”.
Turning to “SVQGMSQDPVAVAASNNPEL (listed as Mycobacterium bovis) [peptide 555, 20 amino acid MPB70 peptide obtained from a commercial source; first 15 amino acids correspond to peptide 7]”, the “increase in fluorescence polarization when combined with serum samples #3, #9, and #15” value in test [2] is on record as “did result in a significant increase in fluorescence polarization”.
